Data on one sequence can be found in article PMC10374059.

The exact form of at least one protein or probe is not confirmed. For part of these data: No signal at the amounts used counts as a negative. For part of these data: At least one verdict was read from the data and is not stated in words by the source.

The subject of data set [1] is MBP-rmtHMG44 (TbmtHMG44) (Trypanosoma brucei 427). Briefly: EMSA. As to conditions: LightShift chemiluminescent EMSA kit binding buffer, 0.1% digitonin, 0.01% BSA, no dI-dC, 20 fmol biotinylated DNA, 4 pmol unlabeled competitor, 6% acrylamide gel; recombinant protein; protein details: N-terminal MBP. (In general: A gel shift assay detects complexes by their altered migration in electrophoresis.)

In data set [2] the test system is rKAP68-His (TbKAP68). Nature of the data set: EMSA. As to conditions: 200 and 100 ng protein shift almost all of 20 fmol DNA, shift drops gradually at 50, 25, 6.25 ng, no dI-dC, LightShift chemiluminescent EMSA kit binding buffer, 0.1% digitonin, 0.01% BSA, 20 fmol biotinylated DNA, 4 pmol unlabeled competitor, 6% acrylamide gel, recombinant protein, protein details: C-terminal 6xHis.

The subject of data set [3] is rKAP68-His (TbKAP68). Nature of the data set: competition with a labelled probe. To be noted: 200-fold excess of unlabeled same DNA competes; LightShift chemiluminescent EMSA kit binding buffer, 0.1% digitonin, 0.01% BSA, no dI-dC, 20 fmol biotinylated DNA, 4 pmol unlabeled competitor, 6% acrylamide gel; recombinant protein; protein details: C-terminal 6xHis.

As for “GAAAAAACGGAAAATCTTATGGGCGTGCAAAAATACACATACACAAATCCCGTGCTTATTTTAGGCCATTTTT (double strand) [CM-DNA, conserved minicircle 73 bp]”, the binding result in data set [1] is “no binding”; in the data set on rKAP68-His (TbKAP68) [2], “binds”; in the data set on rKAP68-His (TbKAP68) [3] it was “binds”.
